Results deposited as PubChem BioAssay AID624099 (ICCB-Longwood, 2012).
Here is a random part of about 21,000 reagents tested. Over the whole deposit, 497 (2.4%) were called active. 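Higher z means weaker E2 silencing; only reporter increases were scored, and knock-downs that hurt cell survival may mask genuine repressor factors.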 The numbers tell different reagents against one gene apart.

- Purpose: 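Host factors E2 relies on to silence an HPV18 LCR reporter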 (primary screen)
- Cells: human C33A cervical carcinoma cells (HPV-negative) stably expressing BPV1 E2 and an HPV18 LCR luciferase reporter
- Knock-down reagent: siRNA pool against human genes, 40 nM
- Timing: 72 h
- Read-out: 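Per-well luciferase luminescence, z-scored on each plate against the plate mean and SD with control wells left out, then averaged across three replicate plates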
- Reading the numbers: mean z-score and z-score: higher = stronger reporter signal, weaker E2 silencing
- Rule for the call: 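Hit if mean z-score reaches 2 and two or more of three replicate z-scores also reach 2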

SYNE3 #1 — mean z-score: -1.72; z-score, replicate A: -1.58; z-score, replicate B: -2.09; z-score, replicate C: -1.48; call: inactive
SYNE3 #2 — mean z-score: -0.26; z-score, replicate A: -0.27; z-score, replicate B: -0.01; z-score, replicate C: -0.5; call: inactive
BRPF3 — mean z-score: 0.35; z-score, replicate A: 0.75; z-score, replicate B: 0.4; z-score, replicate C: -0.11; call: inactive
POLR3B — mean z-score: 1.81; z-score, replicate A: 1.6; z-score, replicate B: 2; z-score, replicate C: 1.82; call: inactive
S100Z — mean z-score: -0.18; z-score, replicate A: 0.05; z-score, replicate B: -0.33; z-score, replicate C: -0.24; call: inactive
DIRAS1 — mean z-score: 1.43; z-score, replicate A: 1.2; z-score, replicate B: 1.57; z-score, replicate C: 1.52; call: inactive
WNT10B — mean z-score: 0.76; z-score, replicate A: 0.6; z-score, replicate B: 0.46; z-score, replicate C: 1.24; call: inactive
ATP5PB — mean z-score: -0.07; z-score, replicate A: 0.04; z-score, replicate B: -0.04; z-score, replicate C: -0.2; call: inactive
CCKAR — mean z-score: -0.62; z-score, replicate A: -0.81; z-score, replicate B: -0.6; z-score, replicate C: -0.46; call: inactive
CT45A2 — mean z-score: -1.04; z-score, replicate A: -1.53; z-score, replicate B: -0.6; z-score, replicate C: -0.98; call: inactive
GDF7 — mean z-score: 1.36; z-score, replicate A: 1.49; z-score, replicate B: 1.31; z-score, replicate C: 1.27; call: inactive
PARG — mean z-score: 1; z-score, replicate A: 1.24; z-score, replicate B: 1.1; z-score, replicate C: 0.67; call: inactive
YPEL4 — mean z-score: 0.6; z-score, replicate A: 1.3; z-score, replicate B: -0.1; call: inactive
CAGE1 — mean z-score: 1.3; z-score, replicate A: 1.13; z-score, replicate B: 1.25; z-score, replicate C: 1.53; call: inactive
ATP11AUN — mean z-score: 0.02; z-score, replicate A: 0.32; z-score, replicate B: 0.15; z-score, replicate C: -0.41; call: inactive
TMEM117 — mean z-score: 1.05; z-score, replicate A: 0.94; z-score, replicate B: 1.09; z-score, replicate C: 1.13; call: inactive
AGAP3 — mean z-score: -0.2; z-score, replicate A: -0.3; z-score, replicate B: -0.37; z-score, replicate C: 0.07; call: inactive
FAM53B — mean z-score: 0.72; z-score, replicate A: 0.24; z-score, replicate B: 0.81; z-score, replicate C: 1.12; call: inactive
TCF7L1 — mean z-score: 1.3; z-score, replicate A: 0.28; z-score, replicate B: 3.42; z-score, replicate C: 0.22; call: inactive
NPDC1 — mean z-score: -0.25; z-score, replicate A: -0.08; z-score, replicate B: -0.07; z-score, replicate C: -0.59; call: inactive
POU4F3 — mean z-score: -0.2; z-score, replicate A: -0.18; z-score, replicate B: -0.29; z-score, replicate C: -0.12; call: inactive
ZKSCAN4 — mean z-score: -2.27; z-score, replicate A: -2.07; z-score, replicate B: -2.82; z-score, replicate C: -1.92; call: inactive
POLD4 — mean z-score: -0.62; z-score, replicate A: -0.76; z-score, replicate B: -0.96; z-score, replicate C: -0.14; call: inactive
NRK — mean z-score: -0.02; z-score, replicate A: -0.26; z-score, replicate B: -0.16; z-score, replicate C: 0.36; call: inactive
TTF2 — mean z-score: -0.25; z-score, replicate A: -0.23; z-score, replicate B: -0.3; z-score, replicate C: -0.22; call: inactive
RPS6KA5 — mean z-score: 1.86; z-score, replicate A: 1.89; z-score, replicate B: 1.83; z-score, replicate C: 1.87; call: inactive
BASP1 — mean z-score: 1.37; z-score, replicate A: 1.47; z-score, replicate B: 1.29; z-score, replicate C: 1.36; call: inactive

Records above whose gene name begins with N or n (2):
NPDC1 — mean z-score: -0.25; z-score, replicate A: -0.08; z-score, replicate B: -0.07; z-score, replicate C: -0.59; call: inactive
NRK — mean z-score: -0.02; z-score, replicate A: -0.26; z-score, replicate B: -0.16; z-score, replicate C: 0.36; call: inactive
